From article PMC8281045
Construct, isoform or probe ends are uncertain for at least one entry.

Tested on: GluR-His (Burkholderia glumae BGR1)
Assay: EMSA
Settings: 0.75 uM GluR-His, 1 nM labeled DNA; 10 mM Tris-HCl pH 7.5, 100 mM NaCl, 5% glycerol; 1 nM biotin-labeled DNA; 4% polyacrylamide gel; temperature not stated; recombinant protein; protein details: His; label: biotin; letters put together from the description

Row | Sequence | binding result
1 | CGTCGCGCTACGCCTGGACGGTCAAGCTGGCAAACGGCCTGGAGATCGAGTTCGGGCGCGAGCGCAACGCGGACACGCTGCCCGATCGCGCGCAACGGCTGGTGGCGGCGTGGCCGGCCGTCACCCAGCGCTGGGGGGCCGACATCGAGTACGCGGACCTGCGCTATCCGAACGGGTTCGCGATTCGCGCGGCAGGCATGCGCTTTCTGAGCGACA (double strand) [ftsAp (ftsA putative promoter)] | binds
2 | TCGACGGCGATGGGCCTGCTCGTGGAAGGCAGCGCGCAACGAATGCGCGGCCGCAAGGTCGCAGTGCAATCGGGTTCGGCGGGCCAGATCTTCACGCGGATGAAGGACTGGTTCCTGAGCAATTTCTGAACGGGTTTTGCGCCGGTGCCGGCGGCCGGCGCGCGACGGGAGGTTGCCCGATCTTCCGCCGGATAACGGCCGAGTGGTTATATCTTT (double strand) [ftsZp (ftsZ putative promoter)] | binds
